## Library screen at single concentrations

Source: ChEMBL document CHEMBL3988442, “University of Dundee, Small-Polar-MMV Screening Library” (2021).

Values are the deposited “Percent Effect”, in %.
How 0% and 100% were set is not recorded. Most values in the screen are low, and negative values occur.
The entries come from a sample that favours strong results.

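Phenotypic screen: M. tuberculosis growth, cholesterol and DPPC medium, 4 days; the read-out is not stated. Tested at 500 µM. Direction is inferred from retests: higher values go with more growth inhibition. Of about 18,000 compounds tested this way, about 900 (5%) reached 50% or more in at least one test.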

compound	effect
CC1CS(=O)(=O)CCN1CC(=O)N(C)Cc1ccco1 (stereo unspecified)	7.459
CC(C)(C)OC(=O)N1CC(S(N)(=O)=O)C1	-8.323
Cc1ccc(F)c(NC(=O)C2CCCN2S(C)(=O)=O)c1 (stereo unspecified)	-1.695
Cc1nnsc1CN(C)Cc1ccc(N(C)C)nc1	38.08
Cc1nc(C(=O)NCc2cccs2)ccc1C#N	86.31
CNC(=O)CSc1ncc(Br)cn1	-14.12
COCC(C)Oc1ccc(Cl)cc1S(N)(=O)=O (stereo unspecified)	11.83
COc1ccccc1OC(C)CN (stereo unspecified)	85.77
CN(C)CCC(=O)c1ccc(F)cc1	116.1
COC[C@@H](O)CNC(=O)NC(C)Cc1cccc(Br)c1 (stereo partly specified)	10.37
CCNS(=O)(=O)C1CCN(Cc2ccn(C)c2)C1 (stereo unspecified)	0.3675
CNc1cc(C(=O)NCC(OC)c2cccs2)ccn1 (stereo unspecified)	14.59
CN(C)C(=O)CNC(=O)c1sccc1Br	38
CCNc1nnc(SCc2ccnn2C)s1	17.54
CS(=O)(=O)NCCNCc1cccc(-n2cccn2)c1	11.03
COCCn1cc(C(F)(F)F)ccc1=O	-20.29
CN(Cc1ccc(S(=O)(=O)N(C)C)o1)CC1CC1	19.09
CCC(N)c1cccc(OC)c1OC (stereo unspecified)	-2.237
CCCNC(=O)CN(C)Cc1ccnc(N(C)C)n1	33
CN(C)c1ncc(CN2CCCCC2CO)cn1 (stereo unspecified)	1.424
CC(C(=O)NCc1ccc2c(c1)OCCO2)S(C)(=O)=O (stereo unspecified)	-0.773
c1ccc(CCNCCCN2CCOCC2)cc1	21.35
Cc1ccccc1C(=O)N1CC(=O)Nc2ccccc21	12.54
Cc1cc(=O)cc(C(=O)NCCc2cn[nH]c2)o1	0.2102
CC(C)C(N)c1nc(-c2ccncc2)no1 (stereo unspecified)	13.33
CCOc1ccc(Cl)cc1CNc1nnnn1C	24.21
OCCCSc1nnc(C2CC2)n1C1CC1	1.861
c1cc(-c2ncco2)ccn1	-6.293
COC(=O)CNC(=O)c1ccc(C)c(-n2cccc2)c1	39.11
NCC(=O)N1CCCCC1	0.6719
Cc1nnc(NC(=O)NCC2CCNCC2)s1	-10.63
O=C(c1cccc2cc[nH]c12)N1CCSCC1	6.704
CC1C(=O)CCCN1C(=O)OC(C)(C)C (stereo unspecified)	-2.404
CC(C)CS(=O)(=O)NCc1ccc2c(c1)OCO2	59.95
Cc1cccc(N2CCC(N3CCOC(C)C3)CC2)n1 (stereo unspecified)	17.63
CCNc1nnc(SC(C)C)s1	90.82
Clc1ccc2oc(N3CCNCC3)nc2c1	11.87
CC(C)[C@H](N)C(=O)N1CCN(C(=O)N(C)C)CC1	-2.392
O=C(CCc1ccco1)Nc1nnc[nH]1	-9.774
Nc1nnc(SCc2coc(-c3ccccc3)n2)[nH]1	49.37
CC1(N)CCN(Cc2ccccc2)C1 (stereo unspecified)	3.357
CCc1ncnc(N(CC)CC(N)=O)c1F	5.287
Cc1cnc(C)c(N2CCC3(CC2)CNC(=O)C3)n1	-7.232
CCc1[nH][nH]c(=O)c1CCN	17.75
O=C(NC1=NCCS1)c1sccc1C1CC1	70.22
OC(CN1CCCSCC1)c1ccc(F)cc1 (stereo unspecified)	28.79
COc1ncccc1CNC(=O)N1CCCN(C)CC1	1.398
CCOC(=O)NCCNC(=O)c1ccc(O)c(Cl)c1	19.76
CN(Cc1ccccc1)C1=NS(=O)(=O)c2ccccc21	-16.78
NC(=O)N1CCCC(C(=O)NC2CCCCC2)C1 (stereo unspecified)	-1.249
O=C1CC(O)C(=O)N1C1CCCCC1 (stereo unspecified)	-1.23
CCS(=O)(=O)N(C)CCCNc1ccc(Cl)cn1	75.35
N#CC1CN(C(=O)c2c(F)cccc2Br)CCO1 (stereo unspecified)	17.39
Cc1noc2ncn(CC(=O)NC3CC3)c(=O)c12	-1.625
COc1ncccc1-c1csc(NCCSC)n1	52.03
Cn1cccc1CN1CC(O)(CC#N)C1	-10.24
Cc1ocnc1C(=O)N1CC(=O)Nc2ccc(Br)cc21	-5.619
CN(CCC(O)c1ccccc1)C(=O)c1cc(Cl)c[nH]1 (stereo unspecified)	90.3
COc1cc(F)cc(NCC(=O)NCc2ccco2)c1	73.23
Cc1cc(NC(=O)COc2ccc3c(c2)OCO3)no1	-14.8
N#Cc1nc(NCCSCCCO)ccc1Cl	82.95
c1cn(C2CCCNC2)nn1 (stereo unspecified)	-11.75
CN(CCOc1ccc(F)cc1)CCC(N)=O	7.173
Cn1c(=O)[nH]c2cc(C(=O)N3CCCCCC3)ccc21	11.04
CCN(CC(=O)NC(N)=O)Cc1ccc2c(c1)OCO2	-1.87
OCCNCC(O)c1ccc(Br)cc1 (stereo unspecified)	5.038
O=c1c2cccnc2ncn1CCOCC(F)F	-17.59
NC(=O)C1CCCN(C(=O)c2sccc2Br)C1 (stereo unspecified)	-26.93
CC(C)(C)OC(=O)[C@H]1CCCN1CCO	11.1
CCn1cc(N)cn1	19.66
COc1ccc(-c2ccc(CNS(N)(=O)=O)s2)cc1	2.073
Cc1ccc(CN)n1C	75.58
Nc1ncn(Cc2ccccn2)n1	-0.2933
COc1cc(CCN)ccc1F	17.81

For reference, 8 entries once more:

compound	effect
CCNc1nnc(SC(C)C)s1	90.82
CCNc1nnc(SCc2ccnn2C)s1	17.54
OC(CN1CCCSCC1)c1ccc(F)cc1 (stereo unspecified)	28.79
OCCCSc1nnc(C2CC2)n1C1CC1	1.861
Cc1cc(=O)cc(C(=O)NCCc2cn[nH]c2)o1	0.2102
CCOC(=O)NCCNC(=O)c1ccc(O)c(Cl)c1	19.76
CN(Cc1ccccc1)C1=NS(=O)(=O)c2ccccc21	-16.78
CCc1ncnc(N(CC)CC(N)=O)c1F	5.287